Assay results published in patent publication EP4825863A1, “DESIGN, PREPARATION AND APPLICATION OF TARGETED ACTIVATION ENRICHMENT TYPE NEAR-INFRARED PROBE AND PHOTOSENSITIZER” (dated 2026).
The match of structure and compound is tentative.

Chains of the proteins cited; added tags and fusions are not shown. Residues count along the entry.
UniProt P62593, 24-286 limits assumed: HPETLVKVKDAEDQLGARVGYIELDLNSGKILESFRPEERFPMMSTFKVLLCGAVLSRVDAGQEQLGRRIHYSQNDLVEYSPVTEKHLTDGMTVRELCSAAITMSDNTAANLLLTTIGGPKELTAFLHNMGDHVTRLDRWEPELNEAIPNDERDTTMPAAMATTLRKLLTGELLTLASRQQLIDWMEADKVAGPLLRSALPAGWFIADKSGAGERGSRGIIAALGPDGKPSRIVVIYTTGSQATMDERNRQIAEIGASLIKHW

How the values were obtained:
[1] = biological target: T1, β-lactamase TEM-1 (Escherichia coli, UniProt P62593); assay: SDS-PAGE and dual-color near-infrared fluorescence scanning (protein labeling); details: 10 µM, TEM-1 5 µM, 37°C, 2 hours
Method: Experimental conditions: A 12% SDS-PAGE resolving gel and a 5% stacking gel were prepared. The probes and photosensitizers were prepared as 10 µM working solutions in PBS (pH = 7.4) and incubated with different proteins at 37°C for 2 hours. The concentrations of β-lactamase TEM-1 and BSA were 5 µM and 10 µM, respectively. For the inhibitor group, the inhibitor avibactam (1 mM) was pre-incubated with TEM-1 for 30 minutes before co-incubation with the probe. Subsequently, SDS-PAGE loading buffer was added to the samples and mixed thoroughly. Each sample (15 µL) was loaded onto the gel and subjected to electrophoresis. Upon completion, fluorescent bands were obtained using dual-color near-infrared fluorescence scanning. Finally, the gel was stained with Coomassie Brilliant Blue and photographed using a gel imaging system.

[2] = biological target: T1, β-lactamase TEM-1; assay: HPLC analysis of enzymatic hydrolysis; details: TEM-1 100 nM, 37°C, 15 minutes, 660 nm
Method: Experimental conditions: The probes were prepared as 5 µM working solutions in PBS (pH = 7.4), while the photosensitizers were prepared as 10 µM working solutions in PBS (pH = 7.4). The final concentration of β-lactamase TEM-1 was 100 nM, and the final concentration of nucleophile β-mercaptoethanol was 10 mM. The total reaction volume was 100 µL, and the reaction mixture was incubated at 37°C for 15 minutes. Hydrolysis was monitored by HPLC at a detection wavelength of 660 nm.

[3] = biological target: T1, β-lactamase TEM-1; assay: UV absorption and fluorescence spectral analysis of enzymatic hydrolysis; details: TEM-1 100 nM; for UV absorption spectra following enzymatic hydrolysis (photosensitizers) / UV absorption spectra following enzymatic hydrolysis (probes): PBS pH 7.4, 37°C, 15 minutes; for fluorescence after enzymatic hydrolysis (photosensitizers) / fluorescence after enzymatic hydrolysis (probes): excitation 680 nm
Method: Experimental conditions: The probes BIN-3 and BIN-2 were prepared as 5 µM working solutions in PBS (pH = 7.4). The final concentration of β-lactamase TEM-1 was 100 nM, and the final concentration of nucleophile β-mercaptoethanol was 10 mM. The total reaction volume was 100 µL, and the reaction mixture was incubated at 37°C for 15 minutes. The photosensitizers BIN-3I and BIN-2I were prepared as 10 µM working solutions in PBS (pH = 7.4). The final concentration of β-lactamase TEM-1 was 100 nM, and the final concentration of nucleophile β-mercaptoethanol was 100 µM. The total reaction volume was 100 µL, and the reaction mixture was incubated at 37°C for 15 minutes. Subsequently, all UV absorption spectra were measured at room temperature using a Shimadzu UV-Vis spectrophotometer over a wavelength range of 400 to 800 nm. All fluorescence spectra were measured using a fluorescence spectrometer with an excitation wavelength of 680 nm and an emission scanning range of 690 to 850 nm.

[4] = biological target: T1, β-lactamase TEM-1; assay: Enzyme selectivity assay (fluorescence intensity); details: 5 µM; for fluorescence response to β-lactamase TEM-1: 37°C, 30 minutes, 680/720 nm; for fluorescence response to other enzymes and proteins: lysozyme, β-glucosidase, lipase, bovine serum albumin, glutathione, lysine, cysteine, tryptophan
Method: Experimental conditions: The probes were prepared as 5 µM working solutions in PBS (pH = 7.4), followed by addition of various enzymes and proteins. The total reaction volume was 100 µL, and the reaction mixture was incubated at 37°C for 30 minutes. Subsequently, the fluorescence intensity of all groups was measured using a microplate reader, with excitation and emission wavelengths set at 680 nm and 720 nm, respectively.

[5] = test system: Enterobacter cloacae producing β-lactamase; assay: Evaluation of probe enrichment in bacteria
Method: Experimental conditions: The bacterial experiment was conducted in a biosafety cabinet. Enterobacter cloacae producing β-lactamase was first revived on LB agar plates. A single colony was then inoculated into 1 mL of culture medium and incubated at 37°C with shaking. The bacteria were collected into a sterile EP tube, centrifuged at 5,000 rpm, washed twice with PBS, and resuspended in PBS. A bacterial suspension at a concentration of 1 × 10^9 CFU was incubated with the primary probe BIN-3 and the control probe BIN-2 at 37°C for 2 hours. Subsequently, the culture medium was collected to measure the fluorescence intensity. The bacteria were resuspended in lysis buffer, and the fluorescence intensity of the bacterial lysate was measured to calculate the probe concentration in the bacteria.

[6] = test system: E. coli expressing bla; assay: Real-time in vivo imaging of bacterial infection; details: for Relative fluorescence intensity at different time points: mice, 5 × 10^8 CFU right hind limb, probe 1 µmol/kg tail vein
Method: Experimental conditions: In vivo imaging experiments were conducted by injecting the probes into murine infection models followed by real-time fluorescence imaging using an IVIS system. Female BALB/c mice aged 4 to 6 weeks were obtained from the Shanghai Laboratory Animal Research Center. The mice were housed at 25°C with free access to food and water. For real-time in vivo imaging, the mice were divided into groups with five mice per group: the primary probe BIN-3, BIN-3 combined with an inhibitor, and the control probe BIN-2. The probe concentration was 1 µmol/kg, and the concentration of the inhibitor avibactam was 100 mM. E. coli expressing bla (5 × 10^8 CFU) was injected into the right hind limb of the mice to establish a mouse infection model. One hour after bacterial infection, BIN-3 or BIN-2 (1 µmol/kg) was administered via tail vein injection. For the inhibitor group, avibactam (100 mM) was incubated with the bacteria at 37°C for 2 hours and injected into the right hind limb of the mice, followed by tail vein injection of BIN-3. Whole-body fluorescence images were acquired at 1, 2, 3, 4, 6, 8, and 10 hours post-injection using an IVIS Lumina XRMS Series III imaging system. Fluorescence intensity was quantified using region of interest (ROI) analysis in Living Image software.

[7] = test system: Bacteria producing or not producing β-lactamase; assay: Fluorescence imaging of bacteria with and without washing
Method: Experimental conditions: The bacterial experiment was conducted in a biosafety cabinet. Bacteria producing or not producing β-lactamase were first revived on LB agar plates. A single colony was then inoculated into 1 mL of culture medium and incubated at 37°C with shaking for 3 to 5 hours until reaching the logarithmic growth phase. The bacteria were collected into a sterile EP tube, centrifuged at 5,000 rpm, washed twice with PBS, and resuspended in PBS. A bacterial suspension at a concentration of 1 × 10^7 CFU was incubated with the primary probe BIN-3 and the control probe BIN-2 at 37°C for 2 hours. An additional "probe-washing" group was included. After incubation, the bacterial suspension was washed twice with PBS. Subsequently, the bacteria were spotted onto a glass slide and imaged under a fluorescence microscope using the Cy5.5 channel, with the Cy5.5 fluorescence signal pseudo-colored red.

[8] = test system: mixed bacteria populations expressing β-lactamase and mCherry fluorescent protein; assay: Selective imaging of mixed bacterial populations; details: 37°C, 2 hours; mCherry and Cy5.5 channels
Method: For selective imaging experiments involving mixed bacteria populations expressing β-lactamase and mCherry fluorescent protein, the procedures for bacterial culture were identical to those described above, except that prior to imaging, the two bacterial populations were mixed thoroughly and incubated with the probe at 37°C for 2 hours. Subsequently, the bacteria were spotted onto a glass slide and imaged under a fluorescence microscope using both the mCherry and Cy5.5 channels, with the mCherry fluorescence signal pseudo-colored green and the Cy5.5 fluorescence signal pseudo-colored red.

## C[N+]1=C(/C=C/C2=C3Oc4cc(OCC5=C(C(=O)O)N6C(=O)[C@@H](NC(=O)CCc7cn(C(CC(=O)O)C(=O)O)nn7)[C@H]6SC5)c(COC(=O)NCc5cn(C(CC(=O)O)C(=O)O)nn5)cc4C=C3CCC2)C(C)(C)c2cc(I)ccc21 (some centres unmarked)
[1]
  fluorescent bands after incubation with TEM-1: red fluorescent bands were observed
[2]; 10 µM
  hydrolysis by TEM-1 monitored by HPLC (photosensitizers): a series of irregular HPLC peaks
[3]; 10 µM
  UV absorption spectra following enzymatic hydrolysis (photosensitizers): changes in the absorption spectra following enzymatic hydrolysis
  fluorescence after enzymatic hydrolysis (photosensitizers): fluorescence was activated after enzymatic hydrolysis
[3]; 10 µM, β-mercaptoethanol 100 µM
  fluorescence after enzymatic hydrolysis followed by nucleophile attack (photosensitizer): further enhanced after enzymatic hydrolysis followed by nucleophile attack

## C[N+]1=C(/C=C/C2=C3Oc4cc(OCC5=C(C(=O)O)N6C(=O)[C@@H](NC(=O)CCc7cn(C(CC(=O)O)C(=O)O)nn7)[C@H]6SC5)ccc4C=C3CCC2)C(C)(C)c2cc(I)ccc21 (some centres unmarked)
[1]
  fluorescent bands after incubation with TEM-1: no fluorescence signals were observed
[3]; 10 µM
  UV absorption spectra following enzymatic hydrolysis (photosensitizers): changes in the absorption spectra following enzymatic hydrolysis
  fluorescence after enzymatic hydrolysis (photosensitizers): fluorescence was activated after enzymatic hydrolysis

## CCC[N+]1=C(/C=C/C2=C3Oc4cc(OCC5=C(C(=O)O)N6C(=O)[C@@H](NC(=O)CCc7cn(CC[N+](C)(C)CCCS(=O)(=O)O)nn7)[C@H]6SC5)c(COC(=O)NCC)cc4C=C3CCC2)C(C)(C)c2ccccc21
[4]
  fluorescence response to β-lactamase TEM-1: specifically responded to β-lactamase TEM-1
  fluorescence response to other enzymes and proteins: no response to other enzymes and proteins
[3]; 5 µM
  UV absorption spectra following enzymatic hydrolysis (probes): a red-shift in the absorption spectra following enzymatic hydrolysis
  fluorescence after enzymatic hydrolysis (probes): fluorescence was activated after enzymatic hydrolysis
[3]; 5 µM, β-mercaptoethanol 10 mM
  fluorescence after enzymatic hydrolysis followed by nucleophile attack (probe): further enhanced after enzymatic hydrolysis followed by nucleophile attack

## CCC[N+]1=C(/C=C/C2=C3Oc4cc(OCC5=C(C(=O)O)N6C(=O)[C@@H](NC(=O)CCc7cn(CC[N+](C)(C)CCCS(=O)(=O)O)nn7)[C@H]6SC5)ccc4C=C3CCC2)C(C)(C)c2ccccc21
[5]
  visible coloration of bacteria after incubation and PBS washing: no visible coloration
[5]; 1 × 10^9 CFU, 37°C, 2 hours
  concentration in the bacteria, fold lower than that of BIN-3: 150 fold
[6]; 0 (h)
  Relative fluorescence intensity at different time points: 0 × 10^8
[6]; 1 (h)
  Relative fluorescence intensity at different time points: 5.97 ± 0.41 × 10^8
[6]; 2 (h)
  Relative fluorescence intensity at different time points: 3.99 ± 0.18 × 10^8
[6]; 3 (h)
  Relative fluorescence intensity at different time points: 2.88 ± 0.34 × 10^8
[6]; 4 (h)
  Relative fluorescence intensity at different time points: 2.33 ± 0.48 × 10^8
[6]; 5 (h)
  Relative fluorescence intensity at different time points: 1.66 ± 0.44 × 10^8
[6]; 6 (h)
  Relative fluorescence intensity at different time points: 1.1 ± 0.28 × 10^8
[6]; 7 (h)
  Relative fluorescence intensity at different time points: 1.12 ± 0.28 × 10^8
[6]; 8 (h)
  Relative fluorescence intensity at different time points: 1.05 ± 0.2 × 10^8
[6]; 9 (h)
  Relative fluorescence intensity at different time points: 1 ± 0.54 × 10^8
[6]; 10 (h)
  Relative fluorescence intensity at different time points: 1 ± 0.19 × 10^8
[6]; 5 hours post-injection
  signal-to-background ratio (SBR): approximately 1
[6]; 10 hours after probe injection
  coloration at the infection site after skin removal: no such blue-green coloration was observed
[6]; ex vivo, 10 hours after probe injection
  fluorescence intensity of infected right hind limb in isolated organs: significantly weaker signals than the BIN-3 group
[4]
  fluorescence response to β-lactamase TEM-1: specifically responded to β-lactamase TEM-1
  fluorescence response to other enzymes and proteins: no response to other enzymes and proteins
[1]
  fluorescent bands after incubation with TEM-1: no fluorescence signals were observed
[7]; 1 × 10^7 CFU, 37°C, 2 hours
  fluorescence on bacteria after normal incubation: red fluorescence was observed on the bacteria
[7]; washed twice with PBS
  fluorescence on bacteria after washing with PBS: almost no fluorescence
[2]; 5 µM
  hydrolysis by TEM-1 monitored by HPLC (probes): can also be hydrolyzed by β-lactamase TEM-1
[3]; 5 µM
  UV absorption spectra following enzymatic hydrolysis (probes): a red-shift in the absorption spectra following enzymatic hydrolysis
  fluorescence after enzymatic hydrolysis (probes): fluorescence was activated after enzymatic hydrolysis
[8]
  labeling in mixed-bacteria imaging: generated fluorescence signals not only on the drug-resistant bacteria but also on the mCherry-expressing bacteria
